Assay results as given in PMC8809408 (Frontiers in Pharmacology, 2022).

These molecules were tested on pseudotyped lentiviruses harboring S-protein of SARS-CoV-2.
Assay type: cell-based
With `CN(C)CCCN1c2ccccc2Sc2ccc(Cl)cc21` [Chlorpromazine] the “selectivity index (SI)” value was 16.31. In the case of `CNCCCN1c2ccccc2CCc2ccccc21` [Desipramine], the “selectivity index (SI)” value is reported as 8.50. `O=c1[nH]c2ccccc2n1C1CCN(CCCC(c2ccc(F)cc2)c2ccc(F)cc2)CC1` [Pimozide] was tested, and the “selectivity index (SI)” value was 3.31.
